B1: Q7KZF4 1xPhospho [S426(99.3)] (protein, UniProt Q7KZF4 2-910, looked up)
Staphylococcal nuclease …: ASSAQSGGSSGGPAVPTVQRGIIKMVLSGCAIIVRGQPRGGPPPERQINLSNIRAGNLARRAAATQPDAKDTPDEPWAFPAREFLRKKLIGKEVCFTIENKTPQGREYGMIYLGKDTNGENIAESLVAEGLATRREGMRANNPEQNRLSECEEQAKAAKKGMWSEGNGSHTIRDLKYTIENPRHFVDSHHQKPVNAIIEHVRDGSVVRALLLPDYYLVTVMLSGIKCPTFRREADGSETPEPFAAEAKFFTESRLLQRDVQIILESCHNQNILGTILHPNGNITELLLKEGFARCVDWSIAVYTRGAEKLRAAERFAKERRLRIWRDYVAPTANLDQKDKQFVAKVMQVLNADAIVVKLNSGDYKTIHLSSIRPPRLEGENTQDKNKKLRPLYDIPYMFEAREFLRKKLIGKKVNVTVDYIRPASPATETVPAFSERTCATVTIGGINIAEALVSKGLATVIRYRQDDDQRSSHYDELLAAEARAIKNGKGLHSKKEVPIHRVADISGDTQKAKQFLPFLQRAGRSEAVVEYVFSGSRLKLYLPKETCLITFLLAGIECPRGARNLPGLVQEGEPFSEEATLFTKELVLQREVEVEVESMDKAGNFIGWLHIDGANLSVLLVEHALSKVHFTAERSSYYKSLLSAEEAAKQKKEKVWAHYEEQPVEEVMPVLEEKERSASYKPVFVTEITDDLHFYVQDVETGTQLEKLMENMRNDIASHPPVEGSYAPRRGEFCIAKFVDGEWYRARVEKVESPAKIHVFYIDYGNREVLPSTRLGTLSPAFSTRVLPAQATEYAFAFIQVPQDDDARTDAVDSVVRDIQNTQCLLNVEHLSAGCPHVTLQFADSKGDVGLGLVKEGLVMVEVRKEKQFQKVITEYLNAQESAKSARLNLWRYGDFRADDADEFGYSR
modifications: phosphorylated S426
B2: Q9UQE7 3xPhospho [S/Y] (protein, UniProt Q9UQE7 1-1217, looked up)
Structural maintenance of …: MYIKQVIIQGFRSYRDQTIVDPFSSKHNVIVGRNGSGKSNFFYAIQFVLSDEFSHLRPEQRLALLHEGTGPRVISAFVEIIFDNSDNRLPIDKEEVSLRRVIGAKKDQYFLDKKMVTKNDVMNLLESAGFSRSNPYYIVKQGKINQMATAPDSQRLKLLREVAGTRVYDERKEESISLMKETEGKREKINELLKYIEERLHTLEEEKEELAQYQKWDKMRRALEYTIYNQELNETRAKLDELSAKRETSGEKSRQLRDAQQDARDKMEDIERQVRELKTKISAMKEEKEQLSAERQEQIKQRTKLELKAKDLQDELAGNSEQRKRLLKERQKLLEKIEEKQKELAETEPKFNSVKEKEERGIARLAQATQERTDLYAKQGRGSQFTSKEERDKWIKKELKSLDQAINDKKRQIAAIHKDLEDTEANKEKNLEQYNKLDQDLNEVKARVEELDRKYYEVKNKKDELQSERNYLWREENAEQQALAAKREDLEKKQQLLRAATGKAILNGIDSINKVLDHFRRKGINQHVQNGYHGIVMNNFECEPAFYTCVEVTAGNRLFYHIVDSDEVSTKILMEFNKMNLPGEVTFLPLNKLDVRDTAYPETNDAIPMISKLRYNPRFDKAFKHVFGKTLICRSMEVSTQLARAFTMDCITLEGDQVSHRGALTGGYYDTRKSRLELQKDVRKAEEELGELEAKLNENLRRNIERINNEIDQLMNQMQQIETQQRKFKASRDSILSEMKMLKEKRQQSEKTFMPKQRSLQSLEASLHAMESTRESLKAELGTDLLSQLSLEDQKRVDALNDEIRQLQQENRQLLNERIKLEGIITRVETYLNENLRKRLDQVEQELNELRETEGGTVLTATTSELEAINKRVKDTMARSEDLDNSIDKTEAGIKELQKSMERWKNMEKEHMDAINHDTKELEKMTNRQGMLLKKKEECMKKIRELGSLPQEAFEKYQTLSLKQLFRKLEQCNTELKKYSHVNKKALDQFVNFSEQKEKLIKRQEELDRGYKSIMELMNVLELRKYEAIQLTFKQVSKNFSEVFQKLVPGGKATLVMKKGDVEGSQSQDEGEGSGESERGSGSQSSVPSVDQFTGVGIRVSFTGKQGEMREMQQLSGGQKSLVALALIFAIQKCDPAPFYLFDEIDQALDAQHRKAVSDMIMELAVHAQFITTTFRPELLESADKFYGVKFRNKVSHIDVITAEMAKDFVEDDTTHG
modifications: 3x phospho
B3: Q9NRS6 1xPhospho [S/T] (protein, UniProt Q9NRS6 1-342, looked up)
Sorting nexin-15: MSRQAKDDFLRHYTVSDPRTHPKGYTEYKVTAQFISKKDPEDVKEVVVWKRYSDFRKLHGDLAYTHRNLFRRLEEFPAFPRAQVFGRFEASVIEERRKGAEDLLRFTVHIPALNNSPQLKEFFRGGEVTRPLEVSRDLHILPPPLIPTPPPDDPRLSQLLPAERRGLEELEVPVDPPPSSPAQEALDLLFNCESTEEASGSPARGPLTEAELALFDPFSKEEGAAPSPTHVAELATMEVESARLDQEPWEPGGQEEEEDGEGGPTPAYLSQATELITQALRDEKAGAYAAALQGYRDGVHVLLQGVPSDPLPARQEGVKKKAAEYLKRAEEILRLHLSQLPP
modifications: monophosphorylated
B4: Q9BXP5 1xPhospho [T544(100)] (protein, UniProt Q9BXP5 2-876, looked up)
Serrate RNA effector molecule …: GDSDDEYDRRRRDKFRRERSDYDRSRERDERRRGDDWNDREWDRGRERRSRGEYRDYDRNRRERFSPPRHELSPPQKRMRRDWDEHSSDPYHSGYEMPYAGGGGGPTYGPPQPWGHPDVHIMQHHVLPIQARLGSIAEIDLGVPPPVMKTFKEFLLSLDDSVDETEAVKRYNDYKLDFRRQQMQDFFLAHKDEEWFRSKYHPDEVGKRRQEARGALQNRLRVFLSLMETGWFDNLLLDIDKADAIVKMLDAAVIKMEGGTENDLRILEQEEEEEQAGKPGEPSKKEEGRAGAGLGDGERKTNDKDEKKEDGKQAENDSSNDDKTKKSEGDGDKEEKKEDSEKEAKKSSKKRNRKHSGDDSFDEGSVSESESESESGQAEEEKEEAEEALKEKEKPKEEEWEKPKDAAGLECKPRPLHKTCSLFMRNIAPNISRAEIISLCKRYPGFMRVALSEPQPERRFFRRGWVTFDRSVNIKEICWNLQNIRLRECELSPGVNRDLTRRVRNINGITQHKQIVRNDIKLAAKLIHTLDDRTQLWASEPGTPPLPTSLPSQNPILKNITDYLIEEVSAEEEELLGSSGGAPPEEPPKEGNPAEINVERDEKLIKVLDKLLLYLRIVHSLDYYNTCEYPNEDEMPNRCGIIHVRGPMPPNRISHGEVLEWQKTFEEKLTPLLSVRESLSEEEAQKMGRKDPEQEVEKFVTSNTQELGKDKWLCPLSGKKFKGPEFVRKHIFNKHAEKIEEVKKEVAFFNNFLTDAKRPALPEIKPAQPPGPAQILPPGLTPGLPYPHQTPQGLMPYGQPRPPILGYGAGAVRPAVPTGGPPYPHAPYGAGRGNYDAFRGQGGYPGKPRNRMVRGDPRAIVEYRDLDAPDDVDFF
modifications: phospho T544
B5: Q01130 (protein, UniProt Q01130 1-221, looked up)
chain: MSYGRPPPDVEGMTSLKVDNLTYRTSPDTLRRVFEKYGRVGDVYIPRDRYTKESRGFAFVRFHDKRDAEDAMDAMDGAVLDGRELRVQMARYGRPPDSHHSRRGPPPRRYGGGGYGRRSRSPRRRRRSRSRSRSRSRSRSRSRYSRSKSRSRTRSRSRSTSKSRSARRSKSKSSSVSRSRSRSRSRSRSRSPPPVSKRESKSRSRSKSPPKSPEEEGAVSS
modifications: full-length
B6: Q9H7L9 3xPhospho [S45(100); T49(100); S53(99.5)] (protein, UniProt Q9H7L9 2-328, looked up)
Sin3 histone deacetylase …: SAAGLLAPAPAQAGAPPAPEYYPEEDEELESAEDDERSCRGRESDEDTEDASETDLAKHDEEDYVEMKEQMYQDKLASLKRQLQQLQEGTLQEYQKRMKKLDQQYKERIRNAELFLQLETEQVERNYIKEKKAAVKEFEDKKVELKENLIAELEEKKKMIENEKLTMELTGDSMEVKPIMTRKLRRRPNDPVPIPDKRRKPAPAQLNYLLTDEQIMEDLRTLNKLKSPKRPASPSSPEHLPATPAESPAQRFEARIEDGKLYYDKRWYHKSQAIYLESKDNQKLSCVISSVGANEIWVRKTSDSTKMRIYLGQLQRGLFVIRRRSAA
modifications: phospho S45, T49, S53

Tested on: HepG2-NTCP cells
Test: TMT-based phosphoproteome profiling of HBV-infected vs mock HepG2-NTCP (HBV/mock ratio)
Parameters: species or system human
Settings: phosphosite abundance ratio of host protein, HBV-infected vs mock HepG2-NTCP, 7dpi, sheet Up-regulated

Question: Which HBV/mock does the source give for B1 here?
Answer: Its HBV/mock is 1.681.

Question: With B2 as the molecule, how does the HBV/mock read?
Answer: Its HBV/mock is 1.3548.

Question: Which HBV/mock does the source give for B3 here?
Answer: The HBV/mock was 1.554.

Same assay, conditions: phosphosites of host proteins deregulated at 7dpi; sheet Up-regulated; HBV-infected vs mock HepG2-NTCP

Question: Which HBV/mock does the source give for B4 here?
Answer: Its HBV/mock is 1.433.

Question: B5 was tested. Which HBV/mock did it give?
Answer: Its HBV/mock is 1.3401.

Question: For B6, which HBV/mock is on record?
Answer: Its HBV/mock is 1.425.
